Potato spindle tuber viroid, stem 3: variant abundance in plants

PSTVd intermediate strain, stem 3: wild type GUGGUUCCGGAACCGC, pool pattern GUGGUUCCGNANNCNN; upper and lower strand joined, each 5' to 3', the first 8 letters being the upper strand.

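A pool of all variants was put on leaves of three Nicotiana benthamiana plants. Samples came from the inoculated region at 5 days, the leaf margin at 10 and upper systemic leaves at 12.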

Numbers give reads per thousand; 0 = not seen among the reads, higher = more abundant.
Each site shows the three plants.
"Pool" is the share in the plasmid pool used as inoculum, on the same scale.
The inoculated region was read from the minus strand, the other sites from the plus strand.
Samples held 27,691 to 54,225 reads, so the smallest values rest on one or two reads.
Wild type was 17.3 per thousand in the pool and the most common sequence in every sample (inoculated region 330, 345, 235; leaf margin 794, 766, 816; systemic leaves 830, 792, 869).
Sequences that differ at fixed positions probably stem from PCR or sequencing errors, and defective variants can be carried along by functional ones.

| sequence | pool | inoculated region | leaf margin | systemic leaves |
|---|---|---|---|---|
| GUGGUUCCGUAUACCA | 0.954 | 0.560 / 0.367 / 0.297 | 0 / 0.0318 / 0.0361 | 0 / 0 / 0 |
| GUGGUUCCGCAGUCCU | 1.03 | 0.640 / 0.668 / 0.757 | 1.76 / 0.891 / 0.361 | 1.04 / 1.24 / 0.681 |
| GUGGUUCCGGAACUGC | 0.108 | 0.240 / 0.259 / 0.243 | 0.368 / 0.859 / 0.650 | 0.335 / 0.498 / 0.170 |
| GUGGUUCCGGAACGGC | 0.0154 | 0.0800 / 0.0431 / 0.0811 | 0.170 / 0.191 / 0.144 | 0.205 / 0.0922 / 0.219 |
| GUGGUUCCGCAUCCGA | 0.769 | 0.293 / 0.323 / 0.162 | 0 / 0 / 0.0361 | 0.0746 / 0.0184 / 0 |
| GUGGUUCCGAAUACUC | 0.846 | 0.426 / 0.345 / 0.216 | 0 / 0 / 0.0722 | 0 / 0 / 0 |
| GUGGUUCCGAAUGCGC | 0.723 | 0.267 / 0.237 / 0.243 | 0 / 0 / 0 | 0 / 0 / 0 |
| GUUGUUCCGAAGGCCG | 0.0154 | 0 / 0 / 0 | 0 / 0 / 0 | 0 / 0 / 0 |
| GUGGUUCCGGAUUCCC | 1.09 | 0.267 / 0.302 / 0.432 | 0 / 0 / 0 | 0 / 0 / 0 |
| GUGGUUCCGAAAGCUG | 0.862 | 0.133 / 0.367 / 0.216 | 0 / 0.0954 / 0 | 0 / 0 / 0 |
| GUGGUUCCGAAGACGC | 0.893 | 0.586 / 0.819 / 0.730 | 0 / 0.0318 / 0.0361 | 0 / 0 / 0 |
| GUGGUUUCGGACACUU | 0.0154 | 0 / 0 / 0 | 0 / 0 / 0 | 0 / 0 / 0 |
| GUGGUUCCGUAGCCCA | 0.708 | 0.293 / 0.388 / 0.405 | 0 / 0 / 0.0361 | 0 / 0 / 0 |
| GUGGUUCCGUAAUCCU | 0.831 | 0.640 / 0.474 / 0.730 | 0.0567 / 0 / 0 | 0 / 0 / 0 |
| GUGGUACCGUAUUCGU | 0.0154 | 0 / 0 / 0 | 0 / 0 / 0 | 0 / 0 / 0 |
| GUGGUUCCGAAUUCUU | 1.45 | 0.720 / 1.06 / 1.24 | 1.36 / 0.827 / 0.361 | 1.47 / 1.29 / 0.705 |
| GUGGUUCCGUACGCCU | 0.800 | 0.187 / 0.453 / 0.216 | 0 / 0.0318 / 0.0722 | 0 / 0 / 0 |
| GUGGUUCCGAAGCCGC | 0.846 | 0.880 / 0.582 / 0.865 | 0 / 0.0318 / 0.0361 | 0 / 0 / 0 |
| GUGGUUCAGUAUGCAA | 0.0154 | 0 / 0 / 0 | 0 / 0 / 0 | 0 / 0 / 0 |
| GUGGUUCCGAAAUCCA | 0.616 | 2.03 / 1.68 / 2.22 | 0.425 / 0 / 0.903 | 0 / 0 / 0 |
| GUGGUUCCGGAUCCCU | 0.677 | 0.453 / 0.237 / 0.216 | 0 / 0.0318 / 0 | 0 / 0 / 0 |
| GUGGUUCCGUAAGCGA | 1.99 | 1.25 / 1.27 / 0.784 | 0.425 / 0.573 / 0.469 | 0.112 / 0.0184 / 0.0243 |
| GUGGUUCCGAAGGCAC | 0.862 | 0.960 / 0.582 / 0.838 | 0 / 1.18 / 0.397 | 0 / 0 / 0 |
| GUGGUUCCGUACCCCA | 0.893 | 0.373 / 0.604 / 0.432 | 0.0567 / 0.0318 / 0 | 0 / 0 / 0 |
| GUGGUUCCGAACUCCC | 0.816 | 0.880 / 0.690 / 0.892 | 0 / 0 / 0.433 | 0 / 0 / 0 |
| GUGGUUCCGUACACAA | 0.862 | 0.373 / 0.259 / 0.243 | 0 / 0 / 0 | 0 / 0 / 0 |
| GUGGUUCCGGAGCCCG | 0.831 | 0.480 / 0.323 / 0.243 | 0 / 0 / 0 | 0 / 0 / 0 |
| GUGGUUCCGUAAGCAC | 0.754 | 0.320 / 0.453 / 0.270 | 0 / 0.0318 / 0 | 0 / 0 / 0 |
| GUGGUUCAGUAAGCCU | 0.0308 | 0 / 0 / 0 | 0 / 0 / 0 | 0 / 0 / 0 |
| GUGGUUCCGCAUUCGA | 0.800 | 0.187 / 0.367 / 0.189 | 0 / 0 / 0.0361 | 0 / 0 / 0 |
| GUGGUUCCGAAAACGG | 0.831 | 0.267 / 0.431 / 0.189 | 0 / 0 / 0 | 0 / 0 / 0 |
| GUGGUUCCGUACACGC | 0.785 | 0.453 / 0.367 / 0.189 | 0.0283 / 0 / 0 | 0.0186 / 0 / 0 |
| GUGGUUCCGUAUACCC | 1.02 | 0.426 / 0.431 / 0.351 | 0 / 0 / 0 | 0.130 / 0 / 0 |
| GUGGUUCCGAACUCAG | 1.55 | 0.960 / 0.755 / 0.892 | 1.25 / 0.923 / 0.469 | 1.17 / 1.33 / 0.730 |
| GUGGUUCCGGAGGCAG | 0.893 | 0.960 / 0.927 / 0.811 | 0 / 0 / 0 | 0 / 0 / 0 |
| GUGGUUCCGCACACAU | 0.908 | 0.693 / 0.863 / 0.784 | 0 / 0.0318 / 0.0361 | 0 / 0 / 0 |
| GUGGUUCCGUAGACUC | 0.785 | 0.480 / 0.367 / 0.135 | 0 / 0 / 0.0361 | 0 / 0 / 0 |
| GUGGUUCCGAAACCGC | 1.02 | 13.7 / 21.6 / 44.6 | 11.6 / 8.40 / 2.89 | 36.1 / 39.0 / 23.1 |
| GUGGUUCCGGAGCCUU | 0.831 | 0.400 / 0.474 / 0.865 | 0.0283 / 0 / 0.0361 | 0 / 0 / 0 |
| GUGGUUCCGUAGGCGA | 0.939 | 0.533 / 0.496 / 0.567 | 0 / 0 / 0.0361 | 0 / 0 / 0.0243 |
| GUGGUUCCGUAUUCGA | 1.48 | 0.720 / 0.518 / 0.622 | 0.340 / 0 / 0.0361 | 0.186 / 0 / 0 |
| GUGGUUCCGCAUGCAC | 0.831 | 0.293 / 0.237 / 0.405 | 0 / 0 / 0 | 0 / 0 / 0 |
| GUGGUUCCCAGGCGUA | 0.0154 | 0.267 / 0.302 / 0.540 | 0 / 0 / 0 | 0 / 0 / 0 |
| GUGGUUCCGCAGACUU | 0.877 | 1.04 / 0.992 / 1.49 | 0 / 0 / 0 | 0 / 0 / 0 |
| GUUGUUCCGAAAUCCA | 0.0154 | 0 / 0 / 0 | 0 / 0 / 0 | 0 / 0 / 0 |
| GUGGUUCCGAAACCGG | 0.616 | 0.426 / 0.216 / 0.405 | 0 / 0.0318 / 0.0722 | 0 / 0 / 0 |
| GUGGUUCCGCACUCCC | 1.06 | 0.426 / 0.668 / 0.270 | 0.0283 / 0 / 0 | 0.224 / 0.0184 / 0.0243 |
| GUGGUUCCGAACCCUC | 1.29 | 0.586 / 0.668 / 0.649 | 0 / 0.0318 / 0 | 0 / 0.0738 / 0 |
| GUGGUUCCGAAUCCGA | 1.05 | 0.533 / 0.367 / 0.189 | 0 / 0 / 0.0722 | 0 / 0 / 0 |
| GUGGUUCCGAACUCAA | 0.862 | 0.800 / 0.604 / 0.784 | 0.0283 / 1.08 / 0.181 | 0 / 0 / 0 |
| GUGGUUCCCUAAGUUG | 0.400 | 0.107 / 0.280 / 0.189 | 0 / 0 / 0 | 0 / 0 / 0 |
| GUGGUUCCGUAGACUU | 1.00 | 0.933 / 0.798 / 0.892 | 0 / 1.30 / 0.542 | 0 / 0 / 0 |
| GUGGUUCCGGACACUU | 1.05 | 0.720 / 0.561 / 0.703 | 0.368 / 0 / 0.469 | 0 / 0 / 0 |
| GUGGGUCCGCAACCAC | 0.0154 | 0 / 0 / 0 | 0 / 0 / 0 | 0 / 0 / 0 |
| GUGGUUCCGGAGCCCC | 1.28 | 0.533 / 0.431 / 0.189 | 0 / 0 / 0 | 0 / 0 / 0 |
| GUGGUUCCGAUAUCAU | 0.0154 | 0.453 / 0.302 / 0.594 | 1.56 / 1.18 / 0.397 | 1.16 / 1.38 / 0.705 |
| GUGGUUCCUGAACCGC | 0.185 | 0.693 / 0.582 / 1.00 | 0.822 / 1.37 / 1.01 | 1.03 / 0.775 / 0.876 |
| GUGGUUCCGCACUCAA | 0.708 | 0.693 / 0.884 / 1.05 | 0 / 0 / 0.289 | 0 / 0 / 0 |
| GUGGUUCCGCAUUCGG | 0.877 | 0.133 / 0.280 / 0.162 | 0 / 0 / 0 | 0 / 0 / 0 |
| GUGGUUCCGUAUGCAC | 0.877 | 0.320 / 0.431 / 0.270 | 0 / 0.0318 / 0.0361 | 0 / 0 / 0 |
| GUGGUUCCGCAUACUA | 0.816 | 0.506 / 0.280 / 0.243 | 0 / 0.0318 / 0 | 0 / 0 / 0 |
| GUGGUUCCGCAUACGC | 0.739 | 0.506 / 0.323 / 0.297 | 0 / 0 / 0.0361 | 0 / 0 / 0 |
| GUGGUUCCGUAAUCAG | 0.769 | 0.746 / 0.496 / 0.892 | 0.0283 / 0 / 0.289 | 0 / 0 / 0 |
| GUGGUUCCGAAAACAC | 2.28 | 1.57 / 1.38 / 1.65 | 0 / 0.0318 / 0.0361 | 0.354 / 0.0184 / 0 |
| GUGGUUCCGCAUCCCC | 1.00 | 0.293 / 0.259 / 0.216 | 0.0283 / 0.0636 / 0 | 0 / 0 / 0 |
| GUGGUUCCGGAGGCUG | 1.11 | 0.453 / 0.302 / 0.351 | 0 / 0.0318 / 0.0361 | 0 / 0 / 0 |
| GUGGUUCCGAAUGCUU | 0.616 | 0.586 / 0.755 / 0.865 | 0.0567 / 0 / 0.433 | 0 / 0 / 0 |
| GUGGUUCCGCAGGCGA | 0.923 | 0.187 / 0.323 / 0.189 | 0 / 0 / 0 | 0 / 0 / 0 |
| GUGGUUCCGUAGCCAG | 0.877 | 0.880 / 0.604 / 1.03 | 0 / 0.0318 / 0 | 0 / 0 / 0 |

The first 4 entries again:

* GUGGUUCCGUAUACCA (pool 0.954) = inoculated region 0.560 / 0.367 / 0.297; leaf margin 0 / 0.0318 / 0.0361; systemic leaves 0 / 0 / 0
* GUGGUUCCGCAGUCCU (pool 1.03) = inoculated region 0.640 / 0.668 / 0.757; leaf margin 1.76 / 0.891 / 0.361; systemic leaves 1.04 / 1.24 / 0.681
* GUGGUUCCGGAACUGC (pool 0.108) = inoculated region 0.240 / 0.259 / 0.243; leaf margin 0.368 / 0.859 / 0.650; systemic leaves 0.335 / 0.498 / 0.170
* GUGGUUCCGGAACGGC (pool 0.0154) = inoculated region 0.0800 / 0.0431 / 0.0811; leaf margin 0.170 / 0.191 / 0.144; systemic leaves 0.205 / 0.0922 / 0.219

Source: Wu et al. 2024 (doi:10.1371/journal.ppat.1012142), supplementary data.